Molecular target: DprE1 (Mycobacterium tuberculosis, UniProt P9WJF1, Y314H)
Assay: Whole-genome sequencing of spontaneous resistant mutants
Parameters: species or system M. tuberculosis H37Ra
Conditions: SNP in DprE1 of spontaneous H37Ra resistant mutants, genome position 4236718

The chains behind the UniProt entries cited, without tags or fusion partners.
UniProt P9WJF1, whole entry Y314H: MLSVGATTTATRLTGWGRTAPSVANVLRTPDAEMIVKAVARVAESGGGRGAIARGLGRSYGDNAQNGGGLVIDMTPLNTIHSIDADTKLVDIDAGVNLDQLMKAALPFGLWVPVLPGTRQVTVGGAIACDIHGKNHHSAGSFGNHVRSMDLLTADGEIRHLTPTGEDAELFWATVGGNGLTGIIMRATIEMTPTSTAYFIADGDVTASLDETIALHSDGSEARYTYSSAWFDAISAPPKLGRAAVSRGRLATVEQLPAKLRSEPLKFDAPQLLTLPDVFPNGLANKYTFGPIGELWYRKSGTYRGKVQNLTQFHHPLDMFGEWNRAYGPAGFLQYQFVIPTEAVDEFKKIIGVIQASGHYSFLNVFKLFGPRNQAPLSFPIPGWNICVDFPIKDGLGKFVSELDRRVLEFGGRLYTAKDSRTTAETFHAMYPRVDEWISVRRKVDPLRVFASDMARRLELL

Structure (SMILES) | Base change [TAC→CAC]
Cc1nc(C)c(CN2CCOc3c(C(=O)NCC(F)(F)F)cc(C4CC4)cc32)nc1C [B18, 6-cyclopropyl-N-(2,2,2-trifluoroethyl)-4-((3,5,6-trimethylpyrazin-2-yl)methyl)-3,4-dihydro-2H-benzo[b][1,4]oxazine-8-carboxamide] | 940
COc1ncnc(Cn2cc(C(=O)NCCO)c3ncc(C)cc32)c1C [TBA-7371, reference compound] | 940

— PMC10581193 (Microbiology Spectrum, 2023)
